The target in the experiment is CO17 B NA (recombinant neuraminidase head of B/Colorado/06/2017, B/Victoria-lineage) (Influenza B virus B/Colorado/06/2017).

Take “CO17 B NA (recombinant neuraminidase head of B/Colorado/06/2017, B/Victoria-lineage)”: the stoichiometry N (commonly the number of molecules, sites or subunits per partner or assembly) came to 4.

Source of the values: article PMC12316933, “Structural basis of broad protection against influenza virus by human antibodies targeting the neuraminidase active site via a recurring motif in CDR H3” (2025).
